Test results reported in US8129402B2 (priority 2002, dated 2012).

System: [PSI+] prion (prion form of the protein Sup35p), STRg6 strain
Format: cell-based, Saccharomyces cerevisiae

## CCN(CC)CCCC(C)Nc1c2ccc(Cl)cc2nc2ccc(OC)cc12 (stereo not shown) [quinacrine]
  synergy of action with guanidium chloride: strong synergy of action
